In paper PMC8956739 (Nature Communications, 2022):
Residues, ends and D or L forms follow the SMILES beside them.

Tested on: HK-2 cells
Assay: Transcriptomic analysis (RNA-Seq) of kidney cells
Assay type: cell-based, human
Details: 100 μM, 24 h, fold change ≥ 1.5
Procedure: Human Kidney-2 (HK-2) cells (CRL-2190™, American Type Culture Collection) were treated with 100 μM colistin, F287, F319, and F365 for 24 h. Previous transcriptomic data of HK-2 cells following 24 h treatment with polymyxin B[26] were also employed for comparative bioinformatic analysis. RNA extraction was conducted as described above. Raw reads were aligned to genome GRCh38.94 (Ensembl genome database, http://ftp.ensembl.org/pub/release-94/fasta/homo_sapiens/dna/) using […] and summarized by featureCounts. Differentially expressed genes were determined using limma 3.46.0, with a combination of fold change ≥ 1.5 and FDR (by Benjamini–Hochberg algorithm) adjusted P-value ≤ 0.05 (n = 3). Key regulatory genes of HK-2 were analyzed in the context of signaling network in the Signor 2.0 database. Enrichment analysis of gene differential expression in HK-2 cells was conducted using enrichR 2.1. UpSetR 1.4.0, ComplexHeatmap 2.6.2, circlize 0.4.13 and iGraph 1.2.11 were used for data visualization. Raw data were deposited in the Short Reads Archive database under accession numbers SRR15239061-SRR15239078.

Row | Compound | number of genes with significantly changed expression [genes]
1 | CCCCCCCC(=O)N[C@@H](CCN)C(=O)N[C@H](C(=O)N[C@@H](CN)C(=O)N[C@H]1CCNC(=O)[C@H]([C@@H](C)O)NC(=O)[C@H](CCN)NC(=O)[C@H](CCN)NC(=O)[C@H](CC)NC(=O)[C@@H](CC(C)C)NC(=O)[C@H](CCN)NC1=O)[C@@H](C)O [Lipopeptide F287] (HELM PEPTIDE1{[CCCCCCCC(=O)[*:2]].[Dab].T.[NC[C@H](N[*:1])C(=O)[*:2]].[Dab].[Dab].[dL].[Abu].[Dab].[Dab].T}$PEPTIDE1,PEPTIDE1,5:R3-11:R2$$$V2.0) | 1076
2 | CCCCCCCC(=O)N[C@@H](CCN)C(=O)N[C@H](C(=O)N[C@@H](CCN)C(=O)N[C@H]1CCNC(=O)[C@H]([C@@H](C)O)NC(=O)[C@H](CCN)NC(=O)[C@H](CCN)NC(=O)[C@H](CC)NC(=O)[C@@H](CC(C)C)NC(=O)[C@H](CCN)NC1=O)[C@@H](C)O [Lipopeptide F319] (HELM PEPTIDE1{[CCCCCCCC(=O)[*:2]].[Dab].T.[Dab].[Dab].[Dab].[dL].[Abu].[Dab].[Dab].T}$PEPTIDE1,PEPTIDE1,5:R3-11:R2$$$V2.0) | 763
3 | CC[C@@H]1NC(=O)[C@@H](CC(C)C)NC(=O)[C@H](CCN)NC(=O)[C@@H](NC(=O)[C@H](CN)NC(=O)[C@@H](NC(=O)[C@H](CCN)NC(=O)c2ccc(Cl)cc2Cl)[C@@H](C)O)CCNC(=O)[C@H]([C@@H](C)O)NC(=O)[C@H](CCN)NC(=O)[C@H](CCN)NC1=O [Lipopeptide F365] (HELM PEPTIDE1{[O=C(c1ccc(Cl)cc1Cl)[*:2]].[Dab].T.[NC[C@H](N[*:1])C(=O)[*:2]].[Dab].[Dab].[dL].[Abu].[Dab].[Dab].T}$PEPTIDE1,PEPTIDE1,5:R3-11:R2$$$V2.0) | 70
4 | Colistin [reference compound] | 1282
